Results of unrelated studies side by side (data: NIAID ChemDB).

Shared fields: growth or infection tests; species: Aspergillus flavus; measure: zone

An empty or dashed field is not shown. Conditions beyond the fields shown may differ between rows. Zone: diameter of growth inhibition.

Cn1c(=O)c(-c2[nH][nH]c(=O)c2N=Nc2ccccc2Br)c(O)c2ccccc21 ; dose: 1 mg/mL ; read by: agar diffusion ; strain: ATCC 28542 ; result: 12 mm
O=c1[nH]c(-c2cc3ccccc3oc2=O)nc2c1C(c1ccc(Cl)cc1)c1ccc3ccccc3c1O2 ; dose: 100 µg/mL ; read by: agar diffusion / agar ; result: 11 mm
Cc1nc2ccccc2n(CC(=O)NN2C(=O)CSC2c2ccc(C(F)(F)F)cc2)c1=O ; dose: 100 µg/mL ; result: 24 mm
O=C(CNC(=O)c1ccncc1)NN1C(=O)/C(=C/c2cccc([N+](=O)[O-])c2)SC1c1cccc([N+](=O)[O-])c1 ; dose: 50 µg/mL ; read by: agar diffusion ; result: 22 mm
COc1ccc(-c2nn(-c3ccccc3)cc2C2CC(c3ccc(Cl)cc3Cl)=NN2c2ccccc2)cc1 ; dose: 500 µg/mL ; result: 0 mm
Cc1nc2ccccc2n(CC(=O)NN2C(=O)CSC2c2ccc(O)cc2)c1=O ; dose: 50 µg/mL ; result: 12 mm
CC(=Nc1cccc2cccc(N=C(C)c3c(O)ccc4c(C)cc(=O)oc34)c12)c1c(O)ccc2c(C)cc(=O)oc12 ; dose: 100 µg/mL ; strain: MTCC 1883 ; result: 6 mm
O=C(O)c1ccccc1C(=O)NNc1nc2[nH]c3ccc(Cl)cc3c2c2ccccc12 ; dose: 6.25 µg/mL ; read by: agar diffusion / visual reading ; strain: MTCC-1973 ; result: 7 mm
C[C@H]1[C@H](O)[C@@H](C)/C=C/C=C/C=C/C=C/C=C/C=C/C=C/[C@H](O[C@@H]2O[C@H](C)[C@@H](O)[C@H](N)[C@@H]2O)C[C@@H]2O[C@](O)(C[C@@H](O)C[C@@H](O)CC[C@H](O)[C@@H](O)C[C@@H](O)CC(=O)O[C@H]1C)C[C@H](O)[C@H]2C(=O)O ; dose: 100 µg/mL ; read by: agar diffusion / agar ; result: 25 mm
CSc1ccc(C2=NN(c3ccccc3)C(c3cn(-c4ccccc4)nc3-c3ccc(Cl)cc3)C2)cc1 ; dose: 500 µg/mL ; result: 2 mm
Cc1nc2ccccc2n(CC(=O)NN2C(=O)CSC2c2ccccc2Cl)c1=O ; dose: 100 µg/mL ; result: 14 mm
COc1ccc(-c2nn(-c3ccccc3)cc2C2CC(c3ccc(-c4ccccc4)cc3)=NN2c2ccccc2)cc1 ; dose: 500 µg/mL ; result: 0 mm
Cc1ccc2[nH]c3c(c2c1)c1ccccc1c1nnc(C(C)(C)C)n13 ; dose: 12.5 µg/mL ; read by: agar diffusion / visual reading ; strain: MTCC-1973 ; result: 8 mm
O=c1[nH]c(-c2cc3ccccc3oc2=O)nc2c1C(c1ccccc1)c1ccc3ccccc3c1O2 ; dose: 100 µg/mL ; read by: agar diffusion / agar ; result: 11 mm
Cn1c(=O)c(-c2[nH][nH]c(=O)c2N=Nc2ccc(Br)cc2)c(O)c2ccccc21 ; dose: 1 mg/mL ; read by: agar diffusion ; strain: ATCC 28542 ; result: 11 mm
Clc1ccc(C2=NNc3c4ccccc4c4c5cc(Cl)ccc5nc-4n3C2)cc1 ; dose: 12.5 µg/mL ; read by: agar diffusion / visual reading ; strain: MTCC-1973 ; result: 6 mm
COc1ccc(N2C(=O)N(c3ccc(Cl)c(C(F)(F)F)c3)C(=N)C2=S)cc1 ; dose: 5 mg/mL ; read by: agar diffusion / agar ; result: 14 mm
O=C(CNC(=O)c1ccncc1)NN1CSCC1=O ; dose: 100 µg/mL ; read by: agar diffusion ; result: 15.8 mm
Cc1ccc(/C=c2\c(=O)[nH][nH]\c2=C2/C(=O)c3ccccc3N(C)C2=O)cc1 ; dose: 1 mg/mL ; read by: agar diffusion ; strain: ATCC 28542 ; result: 5 mm
N=C1C(=S)N(c2ccc(F)cc2)C(=O)N1CCCCCCN1C(=N)C(=S)N(c2ccc(F)cc2)C1=O ; dose: 5 mg/mL ; read by: agar diffusion / agar ; result: 14 mm
O=C(CNC(=O)c1ccncc1)NN1C(=O)CSC1c1ccc([N+](=O)[O-])cc1 ; dose: 100 µg/mL ; read by: agar diffusion ; result: 25 mm
Cn1c(=O)c(-c2[nH][nH]c(=O)c2N=Nc2ccc(Cl)cc2)c(O)c2ccccc21 ; dose: 1 mg/mL ; read by: agar diffusion ; strain: ATCC 28542 ; result: 14 mm
COc1ccc(C2SCC(=O)N2NC(=O)Cn2c(=O)c(C)nc3ccccc32)cc1OC ; dose: 50 µg/mL ; result: 8 mm
O=C(NN=CC1C(c2ccccc2)=Nc2ccccc21)N1c2ccccc2C=Cc2ccccc21 ; dose: 1000 µg/mL ; read by: agar diffusion ; strain: MTCC-1973 ; result: 10 mm
COc1ccc(C2=NNc3c4ccccc4c4c5cc(Cl)ccc5nc-4n3C2)cc1 ; dose: 12.5 µg/mL ; read by: agar diffusion / visual reading ; strain: MTCC-1973 ; result: 8 mm
Cc1nc2ccccc2n(CC(=O)NN2C(=O)CSC2c2ccc(Cl)cc2)c1=O ; dose: 50 µg/mL ; result: 13 mm
O=C(CNC(=O)c1ccncc1)NN1C(=O)CSC1c1ccc(Cl)cc1 ; dose: 100 µg/mL ; read by: agar diffusion ; result: 20 mm
Clc1ccc(C2=NN(c3ccccc3)C(c3cn(-c4ccccc4)nc3-c3ccccc3)C2)c(Cl)c1 ; dose: 500 µg/mL ; result: 0 mm
OC(Cn1cncn1)(Cn1cncn1)c1ccc(F)cc1F ; dose: 3.125 µg/mL ; read by: agar diffusion / visual reading ; strain: MTCC-1973 ; result: 12 mm
Cc1ccc(N2C(=N)C(=S)N(c3ccc(F)cc3)C2=O)cc1 ; dose: 5 mg/mL ; read by: agar diffusion / agar ; result: 16 mm
[Cl][Cu+].[O-]c1cc2ccccc2cc1/C=N/NC(=S)N/N=C/c1cc2ccccc2cc1O ; dose: 2 mg/mL ; read by: agar diffusion / agar ; result: 0 mm
N=C1C(=S)N(c2ccc(F)cc2)C(=O)N1c1ccc(Cl)cc1 ; dose: 5 mg/mL ; read by: agar diffusion / agar ; result: 15 mm
COc1ccc(C2=NNc3c4ccccc4c4c5cc(OC)ccc5nc-4n3C2)cc1 ; dose: 25 µg/mL ; read by: agar diffusion / visual reading ; strain: MTCC-1973 ; result: 6 mm
Cc1ccc(/C=C2\SC(c3ccc(C)cc3)N(NC(=O)CNC(=O)c3ccncc3)C2=O)cc1 ; dose: 50 µg/mL ; read by: agar diffusion ; result: 7.5 mm
Cc1ccc(C2c3ccc4ccccc4c3Oc3nc(-c4cc5ccccc5oc4=O)[nH]c(=O)c32)cc1 ; dose: 100 µg/mL ; read by: agar diffusion / agar ; result: 8 mm
Cn1c(=O)c(-c2[nH][nH]c(=O)c2C=Nc2ccc(Cl)cc2)c(O)c2ccccc21 ; dose: 1 mg/mL ; read by: agar diffusion ; strain: ATCC 28542 ; result: 16 mm
CN(C)C=O ; dose: 30 µg/mL ; result: 6 mm
O=C(CNC(=O)c1ccncc1)NN1C(=O)CSC1c1ccccc1Br ; dose: 100 µg/mL ; read by: agar diffusion ; result: 17 mm
COc1ccc2nc3n4c(c5ccccc5c-3c2c1)NN=C(c1ccccc1)C4 ; dose: 25 µg/mL ; read by: agar diffusion / visual reading ; strain: MTCC-1973 ; result: 7 mm
Cn1c(=O)c(-c2[nH][nH]c(=O)c2N=Nc2cccc(Br)c2)c(O)c2ccccc21 ; dose: 1 mg/mL ; read by: agar diffusion ; strain: ATCC 28542 ; result: 14 mm
N=C1C(=S)N(c2ccc(F)cc2)C(=O)N1c1ccc(Oc2ccc(N3C(=N)C(=S)N(c4ccc(F)cc4)C3=O)cc2)cc1 ; dose: 5 mg/mL ; read by: agar diffusion / agar ; result: 15 mm
COc1ccc(C2=NNc3c4ccccc4c4c5cc(C)ccc5nc-4n3C2)cc1 ; dose: 12.5 µg/mL ; read by: agar diffusion / visual reading ; strain: MTCC-1973 ; result: 8 mm

The last 5 rows once more:

structure,dose,read by,strain,result
O=C(CNC(=O)c1ccncc1)NN1C(=O)CSC1c1ccccc1Br,100 µg/mL,agar diffusion,-,17 mm
COc1ccc2nc3n4c(c5ccccc5c-3c2c1)NN=C(c1ccccc1)C4,25 µg/mL,agar diffusion / visual reading,MTCC-1973,7 mm
Cn1c(=O)c(-c2[nH][nH]c(=O)c2N=Nc2cccc(Br)c2)c(O)c2ccccc21,1 mg/mL,agar diffusion,ATCC 28542,14 mm
N=C1C(=S)N(c2ccc(F)cc2)C(=O)N1c1ccc(Oc2ccc(N3C(=N)C(=S)N(c4ccc(F)cc4)C3=O)cc2)cc1,5 mg/mL,agar diffusion / agar,-,15 mm
COc1ccc(C2=NNc3c4ccccc4c4c5cc(C)ccc5nc-4n3C2)cc1,12.5 µg/mL,agar diffusion / visual reading,MTCC-1973,8 mm